## PSTVd stem 15 mutant pool in Nicotiana benthamiana

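A pool of all variants was put on leaves of three Nicotiana benthamiana plants. Samples came from the inoculated region at 5 days, the leaf margin at 10 and upper systemic leaves at 12.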

The pool varies stem 15 of the PSTVd intermediate strain in the pattern CUGGAGCGAUNGNNUNNG; wild type is CUGGAGCGAUCGCUUCGG (upper and lower strand joined, each 5' to 3', the first 9 letters being the upper strand).

Values are reads per thousand in the sample; higher means more abundant, 0 means not found.
Each value is the mean of three plants.
"Pool" is the share in the plasmid pool used as inoculum, on the same scale.
The inoculated region was read from the minus strand, the other sites from the plus strand.
IR is the inoculated region, LM the leaf margin, Sys the systemic leaves.
Samples held 36,693 to 63,082 reads, so the smallest values rest on one or two reads.
Sequences that differ at fixed positions probably stem from PCR or sequencing errors, and defective variants can be carried along by functional ones.
Wild type was 10.2 per thousand in the pool and the most common sequence in every sample (inoculated region 285, 367, 312; leaf margin 785, 865, 782; systemic leaves 854, 898, 915).

CUGGAGCGAUUGUGUGUG (pool 0.760) gave IR 0.252; LM 0.0419; Sys 0. CUGGAGCGAUGGUUUUAG (pool 1.00) read IR 1.50; LM 0.522; Sys 0.648. CGGGAGCGAUUGUUUUUG (pool 0.0162) read IR 0; LM 0; Sys 0. CUGGAGCGAUCGAUUUAG (pool 0.986) read IR 0.238; LM 0.0350; Sys 0. CUGGAGCGAUAGAGUUCG (pool 0.921) read IR 0.232; LM 0.0479; Sys 0. CGGGAGCGAUCGACUAGG (pool 0.0162) read IR 0; LM 0; Sys 0. CUGGAGCGAUGGAAUCGG (pool 0.873) read IR 0.254; LM 0.0282; Sys 0. For CUGGAGCGAUUGAUUAAG (pool 0.873) the result was IR 0.234; LM 0.0276; Sys 0. For CUGGAGCGAUCUACCCGG (pool 0.0646) the result was IR 0.00698; LM 0; Sys 0.

With CUGGAGCGAUUGGCUAUG (pool 0.743) the assay gave IR 0.206; LM 0.0754; Sys 0. For CUGGAGCGAUUGCCUAGG (pool 1.08) the result was IR 0.647; LM 0.0579; Sys 0. For CUGGAGCGAUAGCGUACG (pool 0.889) the result was IR 0.287; LM 0.0472; Sys 0. CUCGAGCGAUGGGUUUUG (pool 0.0162) gave IR 0; LM 0; Sys 0. With CUGGAGCGAUAGUGUGAG (pool 0.808) the assay gave IR 0.282; LM 0.0403; Sys 0. CUGGAGCGAUUGGGUCGG (pool 1.94) read IR 1.82; LM 0.0457; Sys 0. For CUGGAGCGAUAGCCUGGG (pool 0.937) the result was IR 0.387; LM 0.0260; Sys 0. For CUGGAGCGAUUGCGUAUG (pool 0.824) the result was IR 0.288; LM 0.0207; Sys 0. CUGGAGCGAUUGGAUCAG (pool 0.889) gave IR 0.208; LM 0; Sys 0.

CUAGAGCGAUAGCAUAGG (pool 0.0162) gave IR 0; LM 0; Sys 0. For CUGGAGCGAUUGAGUCGG (pool 0.695) the result was IR 0.322; LM 0.0265; Sys 0. CAGGAGCGAUUGGAUAAG (pool 0.0162) gave IR 0; LM 0; Sys 0. With CUGGAGCGAUCGUUUUCG (pool 0.808) the assay gave IR 0.269; LM 0.0594; Sys 0. CUGGAGCGAUGGGGUGCG (pool 0.727) gave IR 0.240; LM 0.0381; Sys 0. CUGGAGCGAUAGGGUGAG (pool 0.905) gave IR 0.285; LM 0.0341; Sys 0. For CUGGAGCGAUAGAGUCAG (pool 0.630) the result was IR 0.288; LM 0.0572; Sys 0. With CUGGAGCGAUGGCUUGUG (pool 0.986) the assay gave IR 0.316; LM 0.0463; Sys 0. CUGGAGCGAUAGGUUUUG (pool 0.889) gave IR 0.232; LM 0.0303; Sys 0.

With CUGGAGCGAUGGUAUAGG (pool 0.743) the assay gave IR 0.238; LM 0.0320; Sys 0. For CUGGAGCGAUGGACUGUG (pool 1.02) the result was IR 0.300; LM 0.0260; Sys 0. With CUGGAGCGAUGGUAUUGG (pool 0.743) the assay gave IR 0.283; LM 0.0403; Sys 0. CUGGAGCGAUAGGUUAGG (pool 0.937) read IR 0.263; LM 0.0472; Sys 0. For CUGGAGCGAUGGAAUUCG (pool 0.776) the result was IR 0.338; LM 0.0282; Sys 0. For CUGGAGCGAUCGGCUCAG (pool 0.921) the result was IR 0.232; LM 0.0694; Sys 0. With CUGGAGCGAUUGUCUCCG (pool 1.02) the assay gave IR 1.58; LM 0.489; Sys 0.534. CUGGAGCGAUUGUAUACG (pool 0.727) gave IR 0.292; LM 0.0312; Sys 0. CUGGAGCGAUGGGUUAAG (pool 0.824) read IR 0.283; LM 0.0371; Sys 0.

From the data files of Wu et al. 2024, doi:10.1371/journal.ppat.1012142.